Laboratory results: PubChem BioAssay AID504761 (Drosophila RNAi Screening Center, 2011)

- Purpose: 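Fly genes whose silencing reduces dengue virus type 2 infection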 (primary screen)
- System: D.Mel-2 cells from Drosophila
- Reagent: long dsRNA against Drosophila genes
- Treatment: infection with dengue virus type 2; dose and infection time not stated
- Read-out: 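Cells stained for dengue envelope protein and imaged; percent of infected cells per well on duplicate plates, ranked by infection, with stained nuclei counted for cell number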
- Scale: infection score: higher = more virus-infected cells
- Active means: 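Very low infection ranking in both replicate wells (chance probability at most 0.065), then a retest showing infection dropped 1.5-fold or more at p below 0.05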
- Calls: active = confirmed: knock-down lowers infection; inactive = not picked or not confirmed
The screen tested about 22,000 reagents; this is an unselected part of those that have a named target and a result. Over the whole deposit, 116 (0.52%) are marked active. 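Calls depend on retest data that are not deposited; infection was ranked per plate without normalising between plates; the unit of the infection score is not given.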 The numbers tell different reagents against one gene apart. Not all columns of the deposit are shown. Reagent sequences are not shown. Not stated in the record: the amount of reagent, the time to read-out.

Ak1 (Adenylate kinase 1) #1 scored infection score, replicate 1 = 2.36; inactive.
Ak1 (Adenylate kinase 1) #2 gave infection score, replicate 1 = 1.16; inactive.
With knock-down of Marf1 (Meiosis regulator and mRNA stability factor 1) #1 the results were infection score, replicate 1 = 8.18; inactive.
After knock-down of Marf1 (Meiosis regulator and mRNA stability factor 1) #2 the results were infection score, replicate 1 = 0.58; inactive.
Knock-down of Ugt37A3 (UDP-glycosyltransferase family 37 member A3) resulted in: infection score, replicate 1 = 3.72; inactive.
CG9330 #1 gave infection score, replicate 1 = 1.76; inactive.
After knock-down of CG9330 #2, the record shows infection score, replicate 1 = 14; inactive.

2 entries already listed, arranged by “infection score, replicate 1”, descending:
CG9330 #2 → infection score, replicate 1 = 14; outcome = inactive
CG9330 #1 → infection score, replicate 1 = 1.76; outcome = inactive

Additional records follow.
CG32772 #1 showed infection score, replicate 1 = 2.56; inactive.
With knock-down of CG32772 #2, the record shows infection score, replicate 1 = 3.21; inactive.
Against aru (arouser) #1, the entry reads infection score, replicate 1 = 1.22; inactive.
Depletion of aru (arouser) #2 gave: infection score, replicate 1 = 3.56; inactive.
Knock-down of PGAP2 (Post-GPI attachment to proteins 2) #1 gave: infection score, replicate 1 = 7.24; inactive.
For PGAP2 (Post-GPI attachment to proteins 2) #2, the entry reads infection score, replicate 1 = 12; inactive.
Against Or65a (Odorant receptor 65a) the deposit lists infection score, replicate 1 = 2.2; inactive.
